Results published in article PMC9919615, “Generation of Aurachin Derivatives by Whole-Cell Biotransformation and Evaluation of Their Antiprotozoal Properties” (Molecules, 2023).

Test system: L. donovani MHOM-ET-67/L82
Test: Antileishmanial assay (axenic amastigotes, resazurin viability)
Assay type: cell-based, Leishmania donovani
Settings: IC50 (L6)/IC50 (L. donovani)
Experimental: Serial dilution assays with 11 dilution steps in 96-well plates were used in order to determine the IC50 values of the generated aurachin D analogs against P. falciparum NF54 (erythrocytic stages), T. brucei rhodesiense STIB 900 (bloodstream forms), T. cruzi Tulahuen C4 (intracellular amastigotes) and L. donovani MHOM-ET-67/L82 (axenic amastigotes). Potential cytotoxic effects were evaluated with L6 myoblast cells (Table 2). Evaluation of antileishmanial activity was carried out with axenically grown amastigotes of Leishmania donovani MHOM-ET-67/L82, as previously described. For this, the amastigotes were cultured at 37 °C and pH 5.4 in SM medium supplemented with 10% heat-inactivated fetal bovine serum under an atmosphere of 5% CO2 in air. Following a 3-day exposure to test compounds, the viability of amastigote parasites was quantified using the dye resazurin by monitoring the reductive environment of living cells. Fluorescence development was expressed as percentage of the control, and IC50 values were calculated. Miltefosine was used as positive control.

Question: With `COc1ccc2[nH]c(C)c(C/C=C(\C)CC/C=C(\C)CCC=C(C)C)c(=O)c2c1` [Compound 5, 6-Methoxy aurachin D] as the molecule, how does the “Antileishmanial S.I.” value read?
Answer: 16.2

Question: `COc1ccc2c(=O)c(C/C=C(\C)CC/C=C(\C)CCC=C(C)C)c(C)[nH]c2c1` [Compound 6, 7-Methoxy aurachin D] was tested. Which “Antileishmanial S.I.” value did it give?
Answer: 4.7

Question: How did the “Antileishmanial S.I.” value turn out when `CC(C)=CCC/C(C)=C/CC/C(C)=C/Cc1c(C)[nH]c2cc(Cl)ccc2c1=O` [Compound 9, 7-Chloro aurachin D] was run?
Answer: 5.9

Question: `CC(C)=CCC/C(C)=C/CC/C(C)=C/Cc1c(C)[nH]c2ccc(C)cc2c1=O` [Compound 3, 6-Methyl aurachin D] was tested. Which “Antileishmanial S.I.” value did it give?
Answer: 4.3

Question: How did the “Antileishmanial S.I.” value turn out when `CC(C)=CCC/C(C)=C/CC/C(C)=C/Cc1c(C)[nH]c2cc(C)ccc2c1=O` [Compound 4, 7-Methyl aurachin D] was run?
Answer: 7.2

Question: How did the “Antileishmanial S.I.” value turn out when `CC(C)=CCC/C(C)=C/CC/C(C)=C/Cc1c[nH]c2ccccc2c1=O` [Compound 2, 2-Desmethyl aurachin D] was run?
Answer: 13.2

Question: Which “Antileishmanial S.I.” value does the source give for `CC(C)=CCC/C(C)=C/CC/C(C)=C/Cc1c(C)[nH]c2ccc(Br)cc2c1=O` [Compound 10, 6-Bromo aurachin D] here?
Answer: 7.7

Question: Which “Antileishmanial S.I.” value does the source give for `CC(C)=CCC/C(C)=C/CC/C(C)=C/Cc1c(C)[nH]c2ccc(Cl)cc2c1=O` [Compound 8, 6-Chloro aurachin D] here?
Answer: 18.9

Question: With `CC(C)=CCC/C(C)=C/CC/C(C)=C/Cc1c(C)[nH]c2ccccc2c1=O` [Compound 1, aurachin D] as the molecule, how does the “Antileishmanial S.I.” value read?
Answer: 2970 and 2969.5

Question: `CC(C)=CCC/C(C)=C/CC/C(C)=C/Cc1c(C)[nH]c2ccc(F)cc2c1=O` [Compound 7, 6-Fluoro aurachin D] was tested. Which “Antileishmanial S.I.” value did it give?
Answer: 203.9

Several values for one entry are separate records, joined by “and”; a condition that tells them apart may be missing. Identical values can stand only once.
